Pooled drug test results. Numbers come from NIAID ChemDB, via PubChem.

Shared fields: tests on isolated targets; agent: Hepatitis C virus; target: NS3/NS4A protease

a–b is a range or a potency band. ICn is the concentration giving n% inhibition. An empty or dashed field is not shown. Neighbouring rows are from separate reports. Percent inhibition refers to the dose given; in toxicity tests it is the harm to the cells.

C=CC1CC1(NC(=O)[C@@H]1C[C@@H](OC(=O)Nc2cc(C(C)=O)ccc2N2CCCCC2)CN1C(=O)[C@@H](NC(=O)OC(C)(C)C)C(C)(C)C)C(=O)NS(=O)(=O)C1CC1 ; strain or isolate: BMS/H77C/J416S ; endpoint: IC50 ; result: <0.1 µM
COc1cc(O[C@@H]2C[C@@H](C(=O)NC3(C(=O)NS(=O)(=O)C4CC4)CC34CCC4)N(C(=O)[C@@H](NC(=O)OC(C)(C)C)C(C)C)C2)c2ccc(-c3ccccc3)cc2n1 ; strain or isolate: BMS ; endpoint: IC50 ; result: <5 µM
C=CCOC(=O)CNC(=O)C(=O)C(CCC)NC(=O)[C@H]1C(C(=O)[C@@H](NC(=O)[C@@H](NC(=O)[C@H](CCC(=O)OC(C)(C)C)NC(=O)[C@H](CCC(=O)OC(C)(C)C)NC(C)=O)C(C)C)C(C)C)NC(=O)N1Cc1ccccc1 ; endpoint: Ki ; result: >100 µM
CCC[C@H](NC(=O)[C@@H]1[C@@H](C2CCCC2)CCN1C(=O)[C@H](NC(=O)[C@H](NC(=O)c1cnccn1)C1CCCCC1)C(C)(C)C)C(=O)C(=O)NC1CC1 ; strain or isolate: Hepatitis C virus ; endpoint: Ki ; result: 0.25 µM
C=C[C@@H]1C[C@]1(NC(=O)[C@@H]1C[C@@H](Oc2cc(-c3ccccc3)nc3cc(OC)ccc23)CN1C(=O)[C@@H](Nc1ccncc1[N+](=O)[O-])C(C)(C)C)C(=O)NS(=O)(=O)C1CC1 ; strain or isolate: BMS ; endpoint: IC50 ; result: <5 µM
O=C(NCCOc1ccc(Oc2ccccc2)cc1)c1c(O)cc(O)c([N+](=O)[O-])c1O ; method: HPLC ; endpoint: IC50 ; result: 32.8 µg/mL
C=CC1CC1(NC(=O)[C@@H]1C[C@@H](OC(=O)Nc2cc(C)cc(C)c2)CN1C(=O)[C@@H](NC(=O)OC(C)(C)C)C(C)(C)C)C(=O)NS(=O)(=O)C1CC1 ; strain or isolate: BMS/H77C/J416S ; endpoint: IC50 ; result: <0.1 µM
C=CCNC(=O)C(=O)[C@H](CC1CCC1)NC(=O)[C@@H]1[C@@H]2[C@H](CN1C(=O)[C@@H](NC(=O)[C@@H](NC(=O)c1cnccn1)C1CCCCC1)C(C)(C)C)C2(C)C ; endpoint: Ki ; result: 0.018 µM
CCC[C@H](NC(=O)[C@@H]1[C@@H](C(C)CC)CCN1C(=O)[C@H](NC(=O)[C@H](NC(=O)c1cnccn1)C1CCCCC1)C(C)(C)C)C(=O)C(=O)NC1CC1 ; strain or isolate: Hepatitis C virus ; endpoint: Ki ; result: 0.1 µM
Cc1cccc(NC(=O)c2c(O)cc(O)c([N+](=O)[O-])c2O)c1 ; dose: 100 µg/mL ; method: HPLC ; endpoint: inhibition ; result: 90.4%
CCC[C@H](NC(=O)[C@@H]1[C@@H](C(C)C)CCN1C(=O)[C@H](NC(=O)[C@H](NC(=O)c1cnccn1)C1CCCCC1)C(C)(C)C)C(=O)C(=O)NC1CC1 ; strain or isolate: Hepatitis C virus ; endpoint: Ki ; result: 0.09 µM
O=C(NCCc1ccccc1)c1c(O)cc(O)c([N+](=O)[O-])c1O ; method: HPLC ; endpoint: IC50 ; result: 46.2 µg/mL
C=CC1CC1(NC(=O)[C@@H]1C[C@@H](OC(=O)N(c2ccccc2)c2ccccc2)CN1C(=O)[C@@H](NC(=O)OC(C)(C)C)C(C)(C)C)C(=O)NS(=O)(=O)C1CC1 ; strain or isolate: BMS/H77C/J416S ; endpoint: IC50 ; result: <0.1 µM
CCC[C@H](NC(=O)[C@@H]1[C@@H](C(C)(C)C)CCN1C(=O)[C@H](NC(=O)[C@H](NC(=O)c1cnccn1)C1CCCCC1)C(C)(C)C)C(=O)C(=O)NC1CC1 ; strain or isolate: Hepatitis C virus ; endpoint: Ki ; result: 0.46 µM
C=CCNC(=O)C(=O)C(CCC)NC(=O)[C@H]1C(C(=O)[C@@H](NC(=O)[C@@H](NC(=O)[C@H](CCC(=O)O)NC(=O)[C@H](CCC(=O)O)NC(C)=O)C(C)C)C(C)C)NC(=O)N1Cc1ccccc1 ; endpoint: Ki ; result: 1 µM
C=C[C@@H]1C[C@]1(NC(=O)[C@@H]1C[C@@H](Oc2cc(-c3ccccc3)nc3cc(OC)ccc23)CN1C(=O)[C@@H](NC(=O)OC(C)(C)C)C(C)C)C(=O)NS(=O)(=O)C1CCC1 ; strain or isolate: BMS ; endpoint: IC50 ; result: <0.05 µM
C=CCNC(=O)C(=O)C(CCC)NC(=O)[C@H]1C(C(=O)[C@@H](NC(=O)[C@@H](NC(=O)[C@H](CCC(=O)OC(C)(C)C)NC(=O)[C@H](CCC(=O)OC(C)(C)C)NC(C)=O)C(C)C)C(C)C)NC(=O)N1CC(=O)OCC ; endpoint: Ki ; result: 30 µM
C=CC1CC1(NC(=O)[C@@H]1C[C@@H](OC(=O)Nc2cc(Cl)nc(Cl)c2)CN1C(=O)[C@@H](NC(=O)OC(C)(C)C)C(C)(C)C)C(=O)NS(=O)(=O)C1CC1 ; strain or isolate: BMS/H77C/J416S ; endpoint: IC50 ; result: 0.1–1 µM
CCCCCCCCCCCCCNC(=O)c1c(O)cc(O)c([N+](=O)[O-])c1O ; method: HPLC ; endpoint: IC50 ; result: 100 µg/mL
C=C[C@@H]1C[C@]1(NC(=O)[C@@H]1C[C@@H](Oc2cc(-c3ccccc3)nc3cc(OC)ccc23)CN1C(=O)[C@@H](NC(=O)OCCC(=O)O)C(C)(C)C)C(=O)NS(=O)(=O)C1CC1 ; strain or isolate: BMS ; endpoint: IC50 ; result: <0.05 µM
CCCC1(S(=O)(=O)NC(=O)[C@]2(NC(=O)[C@@H]3C[C@@H](Oc4cc(-c5ccccc5)nc5cc(OC)ccc45)CN3C(=O)[C@@H](NC(=O)OC(C)(C)C)C(C)(C)C)CC23CC3)CC1 ; strain or isolate: BMS ; endpoint: IC50 ; result: 0.05–0.5 µM
CC[C@@H](C=O)NC(=O)[C@@H]1C[C@@H](OCc2ccccc2)CN1C(=O)[C@@H](NC(=O)[C@@H](NC(=O)c1cnccn1)C(C)C)C(C)C ; endpoint: Ki ; result: 12 µM
C=CC1CC1(NC(=O)[C@@H]1C[C@@H](OC(=O)Nc2ncccc2C(=O)OCC)CN1C(=O)[C@@H](NC(=O)OC(C)(C)C)C(C)(C)C)C(=O)NS(=O)(=O)C1CC1 ; strain or isolate: BMS/H77C/J416S ; endpoint: IC50 ; result: <0.1 µM
C=C[C@@H]1C[C@]1(NC(=O)[C@@H]1C[C@@H](Oc2cc(-c3ccccc3)nc3cc(OC)ccc23)CN1C(=O)[C@H](CC(C)C)NC(=O)OC(C)(C)C)C(=O)NS(=O)(=O)C(F)(F)F ; strain or isolate: BMS ; endpoint: IC50 ; result: <5 µM
C=C[C@H]1C[C@@]1(NC(=O)[C@@H]1C[C@@H](Oc2cc(-c3ccccc3)nc3cc(OC)ccc23)CN1C(=O)[C@@H](NC(=O)OC(C)(C)C)C(C)(C)C)C(=O)NS(=O)(=O)C1(Cc2ccncc2)CC1 ; strain or isolate: BMS ; endpoint: IC50 ; result: <0.05 µM
C=CC1CC1(NC(=O)[C@@H]1C[C@@H](OC(=O)N2CCCC2)CN1C(=O)[C@@H](NC(=O)OC(C)(C)C)C(C)(C)C)C(=O)NS(=O)(=O)C1CC1 ; strain or isolate: BMS/H77C/J416S ; endpoint: IC50 ; result: 0.1–1 µM
C=C[C@H]1C[C@@]1(NC(=O)[C@@H]1C[C@@H](Oc2cc(-c3ccccc3)nc3cc(OC)ccc23)CN1C(=O)[C@@H](NC(=O)OC1CCOCC1)C(C)(C)C)C(=O)NS(=O)(=O)C1(Cc2ccccc2)CC1 ; strain or isolate: BMS ; endpoint: IC50 ; result: <0.05 µM
C=C[C@@H]1C[C@]1(NC(=O)[C@@H]1C[C@@H](Oc2cc(-c3ccccc3)nc3cc(OC)ccc23)CN1C(=O)[C@@H](NC(=O)OC(C)(C)C)C(C)(C)C)C(=O)NS(=O)(=O)c1ccc(Cl)cc1 ; strain or isolate: BMS ; endpoint: IC50 ; result: <0.05 µM
C=CC1CC1(NC(=O)[C@@H]1C[C@@H](OC(=O)Nc2ccccc2F)CN1C(=O)[C@@H](NC(=O)OC(C)(C)C)C(C)(C)C)C(=O)NS(=O)(=O)C1CC1 ; strain or isolate: BMS/H77C/J416S ; endpoint: IC50 ; result: 0.1–1 µM
C=C[C@@H]1C[C@]1(NC(=O)[C@@H]1C[C@@H](Oc2cc(-c3ccccc3)nc3cc(OC)ccc23)CN1C(=O)[C@@H](NC(=O)c1ccco1)C(C)(C)C)C(=O)NS(=O)(=O)C1CC1 ; strain or isolate: BMS ; endpoint: IC50 ; result: <0.05 µM
C=C[C@H]1C[C@@]1(NC(=O)[C@@H]1C[C@@H](Oc2cc(-c3ccccc3)nc3cc(OC)ccc23)CN1C(=O)[C@@H](NC(=O)OC(C)(C)C)C(C)(C)C)C(=O)NS(=O)(=O)C1(Cc2ncoc2-c2ccccc2)CC1 ; strain or isolate: BMS ; endpoint: IC50 ; result: <0.05 µM
C=CC1CC1(NC(=O)[C@@H]1C[C@@H](OC(=O)Nc2ccccc2C(=O)OC)CN1C(=O)[C@@H](NC(=O)OC(C)(C)C)C(C)(C)C)C(=O)NS(=O)(=O)C1CC1 ; strain or isolate: BMS/H77C/J416S ; endpoint: IC50 ; result: <0.1 µM
C=C[C@H]1C[C@@]1(NC(=O)[C@@H]1C[C@@H](Oc2cc(-c3ccccc3)nc3cc(OC)ccc23)CN1C(=O)[C@@H](NC(=O)OC(C)(C)C)C(C)(C)C)C(=O)NS(=O)(=O)C1(CCCC)CC1 ; strain or isolate: BMS ; endpoint: IC50 ; result: <0.05 µM
CCCC(NC(=O)[C@@H]1C[C@@H](OC(=O)N2CCc3ccccc3C2)CN1C(=O)[C@H](NC(=O)[C@H](NC(=O)c1cnccn1)C(C)C)C(C)C)C(=O)C(=O)NC1CC1 ; endpoint: Ki ; result: 0.22 µM

Repeating the final 2 entries:

SMILES | dose | strain or isolate | method | endpoint | result
C=C[C@H]1C[C@@]1(NC(=O)[C@@H]1C[C@@H](Oc2cc(-c3ccccc3)nc3cc(OC)ccc23)CN1C(=O)[C@@H](NC(=O)OC(C)(C)C)C(C)(C)C)C(=O)NS(=O)(=O)C1(CCCC)CC1 | - | BMS | - | IC50 | <0.05 µM
CCCC(NC(=O)[C@@H]1C[C@@H](OC(=O)N2CCc3ccccc3C2)CN1C(=O)[C@H](NC(=O)[C@H](NC(=O)c1cnccn1)C(C)C)C(C)C)C(=O)C(=O)NC1CC1 | - | - | - | Ki | 0.22 µM